In the supplement of paper PMC9931576:
Human monoclonal antibodies against the spike receptor-binding domain (heavy:light variable regions). IC50 against pseudoviruses bearing the spike of naturally observed variants; lower = stronger; >10 µg/ml means not reached at the top dose. No active / inactive call. The stated detection limit is 0.0005 µg/ml; values near or below 0.001 µg/ml lie at the floor of the assay.

B1: BD55-6728 (protein)
chain 1: EVQLVESGGGLVQPGGSLRLSCAASGFTFSRFAMHWVRQAPGKGLEYVSSISSNGGSTYYANSVKGRFTISRDNSKNTLYLQLGSLRPEDRAMYYCARESTEVTHWYFDLWGRGTLVTVSS
chain 2: DIQMTQSPSSLSASLGDRVTITCRASQTISRYLNWYQQKPGKAPKVLIYAASSLQSGVPSRFSGSGSGTDFTLTISSLQPEDFATYYCQQSYVTPEYTFGQGTKVELK
B2: BD55-6730 (protein)
chain 1: QLQLQESGSGLVKPSQTLSLTCAVSGGSISSGAYSWSWIRQPPGKGLEWIGYIHHSGNTDYSPSLKSRVTISVDRSKNQFSLKLTSVTAADTAVYYCAREGLQLWPNAFDIWGQGTMVTVSS
chain 2: DIQLTQSPSLLSASVGDRVTITCRASQDISSFLAWYQQKPGKAPKLLIYAASTLQSGVPSRFSGSGSGTEFTLTISSLQPEDFATYYCQQLNSYTTFGPGTKVDFK
B3: BD55-1374 (protein)
chain 1: QVTLRESGPALVRPTQTLTLTCTFSGFSLTTRGLCVSWIRQSPGKALEWLARIDWDDDKYYSTSLRTRLTISKDTSKNQVVLTMTNVDTVDAATYFCARMTPAGPALDYWGQGTLVTVSS
chain 2: DIQMTQSPSSLSASVGDRVTITCRASQSIRTYLNWYQQRPGKAPELLIFAASTLRSGVPSRFSGSGSGTDFTLTITGLQPEDFATYHCQQSFTTPRTFGQGTKVEIK
B4: BD55-1376 (protein)
chain 1: QVQLVQSGAEVKKPGASVKVSCKASGYPFSYYTIHWVRQAPGQRLEWMGWINSGNGNTKYSQKFQGRVTITRDTSANTAYMELSGLTSEDTAFYYCAKVDSSGPAWFDPWGQGTLVTVSS
chain 2: SYVLTQPPSVSVAPGKTARITCGGNNIGGKSVHWYQQKPGQAPILVIYYDSDRPSGIPERFSGSNSGNTATLTISRVEAGDEADYSCQVWDPSSDHPVFGGGTKLTVL
B5: BD-598 (protein)
chain 1: EVQLVESGGGLIQPGGSLRLSCAASGLTVSSNYMSWVRQAPGKGLEWVSVIYSGGSTYYADSVKGRFTISRDNSTNTLYLQMNSLRAEDTAVYYCARDLDYYGMDVWGQGTTVTVSS
chain 2: DIQLTQSPSSLSASVGDRVTITCRASQGISSYLAWYQQKPGKAPNLLIYAASTLQSGVPSRFSGSGSGTDFTLTISSLQPEDFATYYCQHLNSYPPITFGQGTRLEIK
B6: BD55-1412 (protein)
chain 1: EVQLVESGGGLVQPGGSLRLSCAASGFTFNAYWMNWVRQAPGKGLEWVANVKLDGSEKYYMDSVKGRFAISRDNTKNLLYLQMNRLRTEDTAVYYCARATYYYGDFDHWGQGALVTVSS
chain 2: NFMLTQPHSVSESPGKTITISCTRSSGSIAINYVQWYQQRPGSAPTTVIYEDNQRPSGVPDRFSGSIDSSSNSASLTISGLKTEDEADYYCQSYDGSNRYVFGTGTKVTV
B7: BD55-1421 (protein)
chain 1: EVQLVESGGGLVQPGSSLRLSCVASGFKFNDYAMHWVRQAPGKGLEWVSGINWNSGSIAYADSVKGRFTISRENAKNSLHLRMNSLRAEDTAFYYCVKDIRGSGSYFPFDYWGQGTLVTVSS
chain 2: SYVLTQPPSVSVAPGKTARITCGGNNIGSKSVHWYQQKPGQAPVLVMFDGGDRPSGIPERFSGSNSGNTATLTVSRVEAGDEAAYFCQVWDTSSNHWVFGGGTKVTVL

Target: SARS-CoV-2 Omicron BA.1 spike pseudovirus
Assay: pseudovirus neutralization IC50; higher = weaker neutralization
Protocol: (§1)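 Single-round VSV luciferase pseudovirus mixed with antibody dilutions for 1 h and put on Huh-7 cells for about a day; IC50 from the dose curve.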

Binder	pseudovirus neutralization IC50
B1	> 10 µg/mL
B2	> 10 µg/mL
B3	> 10 µg/mL
B4	0.118 µg/mL
B5	> 10 µg/mL
B6	2.71 µg/mL
B7	> 10 µg/mL

Target: SARS-CoV-2 Omicron BA.2 spike pseudovirus
Assay: as above
Protocol: as §1

Binder	pseudovirus neutralization IC50
B1	> 10 µg/mL
B2	> 10 µg/mL
B3	> 10 µg/mL
B4	0.151 µg/mL
B5	> 10 µg/mL
B6	> 10 µg/mL
B7	> 10 µg/mL

Target: SARS-CoV-2 Omicron BA.2.75 spike pseudovirus
Assay: as above
Protocol: as §1

Binder	pseudovirus neutralization IC50
B1	> 10 µg/mL
B2	> 10 µg/mL
B3	> 10 µg/mL
B4	0.192 µg/mL
B5	> 10 µg/mL
B6	> 10 µg/mL
B7	2.12 µg/mL

Target: SARS-CoV-2 Omicron BA.5 spike pseudovirus
Assay: as above
Protocol: as §1

Binder	pseudovirus neutralization IC50
B1	> 10 µg/mL
B2	> 10 µg/mL
B3	> 10 µg/mL
B4	> 10 µg/mL
B5	> 10 µg/mL
B6	> 10 µg/mL
B7	> 10 µg/mL

Target: SARS-CoV-2 Omicron BQ.1.1 spike pseudovirus
Assay: as above
Protocol: as §1

Binder	pseudovirus neutralization IC50
B1	> 10 µg/mL
B2	> 10 µg/mL
B3	> 10 µg/mL
B4	> 10 µg/mL
B5	> 10 µg/mL
B6	> 10 µg/mL
B7	> 10 µg/mL

Target: SARS-CoV-2 Omicron XBB spike pseudovirus
Assay: as above
Protocol: as §1

Binder	pseudovirus neutralization IC50
B1	> 10 µg/mL
B2	> 10 µg/mL
B3	> 10 µg/mL
B4	> 10 µg/mL
B5	> 10 µg/mL
B6	> 10 µg/mL
B7	> 10 µg/mL

Target: SARS-CoV-2 early D614G spike pseudovirus
Assay: as above
Protocol: as §1

Binder	pseudovirus neutralization IC50
B1	> 10 µg/mL
B2	> 10 µg/mL
B3	0.0285 µg/mL
B4	0.161 µg/mL
B5	0.0769 µg/mL
B6	0.259 µg/mL
B7	0.0036 µg/mL
